## Percent effect of library compounds

Mtb cholesterol medium: 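Phenotypic screen: M. tuberculosis growth, cholesterol and DPPC medium, 4 days; the read-out is not stated. Tested at 500 µM. Direction is inferred from retests: higher values go with more growth inhibition. About 18,000 compounds were tested under these conditions; 5% (about 900) showed 50% or more at least once.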
Mtb glucose medium: 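Growth of Mycobacterium tuberculosis over 3 days (7H9 medium with glucose and tyloxapol); the read-out is not stated. Concentration: 500 µM. Higher reads as more growth inhibition (inferred: compounds with an IC50 in retests scored well above the rest). Size under these conditions: about 18,000 compounds, about 1,400 of them at 50% or above in at least one test.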

Results are given as percent effect.
The record does not define 0% and 100%; most values in the screen are far below 50% and negative numbers occur (in some assays of this library far below -100).
The entries come from a sample that favours strong results.

Result for COCCN(CCN)C(=O)OC(C)(C)C was Mtb glucose medium: 12.23%.
Result for COCCn1cncc1CNC(=O)C1(C)CCCCO1 (centres undefined) was Mtb cholesterol medium: 1.135%.
Result for CN(C)c1ncc(CN2CCC(O)(CO)C2)cn1 (centres undefined) was Mtb glucose medium: 5.748%.
Result for CC(=O)NCC1CCCN(c2ccc(C#N)cn2)C1 (centres undefined) was Mtb glucose medium: 27.74%.
Result for O=C(c1ccc(N2CCCCC2=O)cc1)N1CCC1 was Mtb cholesterol medium: 1.227%; Mtb glucose medium: 9.621%.
Result for CC(NC(=O)C(C)(C)C)C(=O)NCc1ccccc1F (centres undefined) was Mtb glucose medium: 3.57%.
Result for COc1ccc(NC(C)CCn2cncn2)cn1 (centres undefined) was Mtb glucose medium: -1077%.
Result for CCN(CC)Cc1nn2c(=O)cc(C)nc2s1 was Mtb glucose medium: -1.983%.
Result for COC(CNC(=O)c1ccn(C)c(=O)c1)C(C)(C)C (centres undefined) was Mtb glucose medium: 19.07%.
Result for c1cncc(N2CCC3(CCCN3)C2)c1 (centres undefined) was Mtb cholesterol medium: -12.06%.
Result for NCC1CCc2ccccc21 (centres undefined) was Mtb cholesterol medium: 14.27%; Mtb glucose medium: 40.67%.
Result for CNc1nc(C(=O)NC2COc3ccccc3C2)cs1 (centres undefined) was Mtb cholesterol medium: 74.44%; Mtb glucose medium: 77.83%.
Result for Cc1nnc(CCNC(=O)CSc2nnc(N)s2)s1 was Mtb glucose medium: 10.07%.
Result for O=C(CNc1ccccc1F)N1CCCCC1 was Mtb cholesterol medium: 77.01%; Mtb glucose medium: 72.06%.
Result for COc1cc2c(cc1OC)CN(C(=O)CCN)CC2 was Mtb glucose medium: 14.11%.
Result for COc1ccc(CCNC(C)=O)c(F)c1 was Mtb cholesterol medium: -7.276%.
Result for NCC1CC12CCS(=O)(=O)CC2 (centres undefined) was Mtb glucose medium: 3.259%.
Result for CC(C)Oc1ccc(NC(=O)NCC(=O)N(C)C)cc1 was Mtb glucose medium: -13.15%.
Result for NCc1cc(N[C@H](CO)CC2CCCCC2)ncn1 was Mtb glucose medium: 63.43%.
Result for CCC(C)(CCO)NC(=O)c1ccncc1Cl (centres undefined) was Mtb cholesterol medium: -9.74%.
Result for N#Cc1ncn(CCOCC2CC2)c1C#N was Mtb cholesterol medium: 2.6%.
Result for CN1CCCN(Cc2cc(F)cc(F)c2)CC1=O was Mtb glucose medium: 62.11%.
Result for O=C(NC1CCCNC1)c1coc2ccccc12 (centres undefined) was Mtb glucose medium: 56.31%.
Result for NC(=O)C(Cc1ccccc1)NC(=O)c1ccccc1 (centres undefined) was Mtb cholesterol medium: -22.69%.
Result for Cc1cc(=O)cc(C(=O)NCCc2cn[nH]c2)o1 was Mtb cholesterol medium: 0.2102%.
Result for CN1CC=C(CCN)CC1 was Mtb glucose medium: -1.44%.
Result for CC(CN1CCOCC1)NC(=O)NC1CC1 (centres undefined) was Mtb cholesterol medium: -4.176%.
Result for COCCn1ccc(N)n1 was Mtb glucose medium: 21.86%.
Result for CCOc1ccc(-c2cc(N)[nH]n2)cc1 was Mtb cholesterol medium: 59.83%; Mtb glucose medium: 63.33%.

The last 3 entries again:

CC(CN1CCOCC1)NC(=O)NC1CC1 (centres undefined) gave Mtb cholesterol medium: -4.176%.
COCCn1ccc(N)n1 gave Mtb glucose medium: 21.86%.
CCOc1ccc(-c2cc(N)[nH]n2)cc1 gave Mtb cholesterol medium: 59.83%; Mtb glucose medium: 63.33%.

From ChEMBL document CHEMBL3988442, “University of Dundee, Small-Polar-MMV Screening Library” (2021).